Measurements reported in patent US6780633B2, “Methods for producing optically active amino acids” (Sumitomo Chemical Company, Limited, priority 1999, dated 2004).

Key:
Assay type in all cases: cell-based
[1] = test system: Nocardia diaphanozonaria strain JCM3208; assay: conversion of amino acid optical isomers by whole cells (cell suspension); conditions: for % D-form / % L-form: 30° C.
[2] = test system: Pseudomonas chlororaphis strain IFO3521; assay: conversion of p-chlorophenylalanine isomers by wet cells; conditions: 0.1% (w/v) substrate, pH 7.0, 30° C., incubation 72 h
[3] = test system: Pseudomonas oleovorans strain IFO13583; assay: as above; conditions: 0.1% (w/v) substrate, pH 7.0, 30° C., incubation 48 h
[4] = test system: Pseudomonas oxalaticus strain IFO13593; assay: as above; conditions: 0.1% (w/v) substrate, pH 7.0, 30° C., incubation 48 h
[5] = test system: Rhizobium meliloti strain IFO14782; assay: as above; conditions: 0.1% (w/v) substrate, pH 7.0, 30° C., incubation 48 h
[6] = substrate D-form, incubation 70 h
[7] = substrate racemic mixture, incubation 72 h
[8] = substrate D-form, incubation 48 h
[9] = substrate L-form, incubation 72 h
[10] = substrate racemic mixture, incubation 48 h
[11] = substrate L-form, incubation 48 h
[12] = substrate D-form, incubation 47 h

SMILES: CCC(N)C(=O)O (racemic) [2-aminobutyric acid]
- % D-form [1, 6]: 38%
- % L-form [1, 6]: 62%
- % D-form [1, 7]: 30%
- % L-form [1, 7]: 70%

SMILES: CCC[C@H](N)C(=O)O (racemic) [Norvaline]
- % D-form [1, 8]: 1%
- % L-form [1, 8]: 99%
- % D-form [1, 9]: 0%
- % L-form [1, 9]: 100%
- % D-form [1, 10]: 4%
- % L-form [1, 10]: 96%

SMILES: CSCC[C@H](N)C(=O)O (racemic) [methionine]
- % D-form [1, 6]: 61%
- % L-form [1, 6]: 39%
- % D-form [1, 11]: 0%
- % L-form [1, 11]: 100%
- % D-form [1, 7]: 31%
- % L-form [1, 7]: 69%

SMILES: NC(C(=O)O)c1ccccc1 (racemic) [phenylglycine]
- % D-form [1, 6]: 2%
- % L-form [1, 6]: 98%
- % D-form [1, 9]: 0%
- % L-form [1, 9]: 100%
- % D-form [1, 10]: 0%
- % L-form [1, 10]: 100%

SMILES: N[C@H](Cc1ccc(Cl)cc1)C(=O)O [D-p-chlorophenylalanine]
- % L-form [2]: 94%
- % D-form [3]: 11%
- % L-form [3]: 89%
- % D-form [4]: 25%
- % L-form [4]: 75%
- % D-form [5]: 16%

SMILES: N[C@@H](Cc1ccc(Cl)cc1)C(=O)O [L-p-chlorophenylalanine]
- % L-form [2]: 100%
- % D-form [3]: 0%
- % L-form [3]: 100%
- formation of D-p-chlorophenylalanine (HPLC analysis of products) ([1]; L-form as substrate, procedure of Example 1, 30° C., 74 hours): no formation of D-p-chlorophenylalanine
- % D-form [4]: 0%
- % L-form [4]: 100%
- % D-form [5]: 0%

SMILES: CC(C)(C)[C@H](N)C(=O)O [tert-Leucine]
- % D-form [1, 12]: 93%
- % L-form [1, 12]: 7%
- % D-form [1, 9]: 0%
- % L-form [1, 9]: 100%

SMILES: CCC(N)C(=O)O (stereo not drawn) [α-Aminobutyric acid]
- % D-form [1, 11]: 0%
- % L-form [1, 11]: 100%
